Measured data: PubChem BioAssay AID1259414 (Drosophila RNAi Screening Center, 2018)

- Screen: 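Host factors increasing or decreasing Wolbachia levels in cultured fly cells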 (primary screen)
- System: Drosophila JW18 cells infected with Wolbachia
- Knock-down reagent: long dsRNA against Drosophila genes, 0.25 µg dsRNA per well of a 384-well plate
- Duration: 5 days
- Treatment: cells persistently infected with Wolbachia before knock-down; no added drug
- Measurement: 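Automated imaging of bacterial rRNA staining divided by host cell count, reported as plate-normalised robust z-score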
- Scale: Wolbachia per cell robust z: higher = more Wolbachia per host cell than the plate typical
- Call rule: 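Active if absolute robust z reaches 1.5 in two or more of three replicates, leaving out multi- or no-target dsRNAs, genes unexpressed in JW18 and A1 wells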
The screen tested about 24,000 reagents; this is a random part of those that have a named target and a result. Over the whole deposit, about 1,210 (5%) are marked active. 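Inactive calls also include excluded dsRNAs with several or no targets, genes unexpressed in JW18, and well A1, regardless of score.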 Unmarked entries are inactive. Names joined by + are all predicted targets of the reagent. Reagent sequences are not shown.

target | dsRNA | Wolbachia per cell robust z, rep 1 | Wolbachia per cell robust z, rep 2 | Wolbachia per cell robust z, rep 3
Hesr | DRSC19965 | -0.874 | -2.27 | -0.902
Polr3F | DRSC15785 | -0.872 | -0.171 | -0.222
CG31457 | DRSC22935 | 0.787 | 0.777 | 1.17
CG31457 | DRSC29229 | -0.164 | 0.118 | 0.382
ara | DRSC22984 | -0.303 | -5.05 | -5.62
ara | DRSC25783 | 0.323 | -0.138 | 0.232
CG33108 | DRSC21613 | -0.984 | -0.316 | 0.038
CG33108 | DRSC26424 | 0.895 | 1.43 | 0.697
CG9010 | DRSC07320 | 0.331 | -1.21 | 0.168
CrebA | DRSC11122 | -0.903 | -2.39 | -4.08
CrebA | DRSC40830 | -1.06 | -0.665 | -2.69
CG7840 | DRSC03075 | 0.207 | 0.194 | -1.36
stx | DRSC23075 | -1.27 (active) | -5.62 | -5.82
stx | DRSC29601 | 0.122 | -5.44 | 0.904
CG30015 | DRSC05241 | -1.28 | -1.07 | -0.549
CG30015 | DRSC07027 | 0.849 | 0.452 | -0.811
CG30015 | DRSC07028 | -0.281 | -0.0499 | -1.44
Yif1 | DRSC15817 | 0.0962 | 0.474 | 0.214
CG17242 | DRSC00493 | 0.571 | 0.161 | 0.276
yata | DRSC15408 | 0.173 | 0.628 | 0.494
CG31687 + Cdc23 | DRSC23052 | 0.948 | 0.666 | 0.317
CG31294 | DRSC22217 | -1.88 | 0.995 | 0.555
CG31294 | DRSC26865 | -0.735 | 0.131 | -9.33
Rsph9 | DRSC01594 | 0.54 | 0.41 | 0.286
Rsph9 | DRSC25908 | -1.24 | 0.467 | -0.0107
CG30116 | DRSC05935 | -1.38 | 0.11 | -0.0484
CG30116 | DRSC06685 | -0.504 | 0.0107 | -1.6
Uch | DRSC00797 | 0.48 | 0.439 | -0.00401
Cyp6a21 | DRSC07381 | -3.71 | -0.464 | -2.17
CG5853 | DRSC01103 | 0.832 | 1.01 | 0.6
CG5853 | DRSC02906 | -8.17 | 1.29 | -9.92
Rga | DRSC29179 | -5.45 | 1.22 | 1.17
CG42561 | DRSC05676 | 0.714 | 5.23 | 0.102
CG15200 | DRSC19647 | 0.798 | 1.19 | 1.18
CG15200 | DRSC24618 | -0.14 | 0.347 | -0.176
sPLA2 | DRSC06041 | -0.266 | 0.547 | 1.07
sPLA2 | DRSC26194 | -0.554 | -0.402 | -0.237
Gbs-70E | DRSC11055 | -0.199 | -0.0892 | -0.411
Fum1 | DRSC18344 | -0.944 | 1.38 | 0.255
Fum1 | DRSC27406 | -6.28 | -1.22 | -0.473
RpL36 | DRSC18708 | 3.22 (active) | 2.93 | 4
CG13630 | DRSC14631 | -3.65 | 0.213 | -0.69
Hipk | DRSC07885 | -1.05 | -4.95 | 1.46
Hipk | DRSC23155 | -0.498 | -0.11 | -0.185
CG10345 | DRSC14138 | -1.58 | -0.862 | -4.63
Papst2 | DRSC10924 | -1.35 | -2.48 | -1.03
Papst2 | DRSC27212 | -0.206 | -1.02 | -0.221
Ctr1A | DRSC18336 | -0.16 | -0.433 | 0.24
TrxT | DRSC23117 | 0.559 | 0.267 | 0.774
Fic | DRSC03247 | -4.64 | 0.372 | -0.474
CG3546 | DRSC18308 | 0.292 | -0.059 | 0.294
CG3546 | DRSC23647 | 0.766 | -1.39 | -1.13
CG32485 | DRSC22666 | -0.89 (active) | -2.26 | -1.54
CG3257 | DRSC04351 | -0.62 | 0.94 | 0.314
CG3257 | DRSC27446 | 0.894 | 1.06 | 0.363
Vha36-1 | DRSC07098 | -1.99 (active) | -6.57 | -0.858
Vha36-1 | DRSC25624 | 0.475 | -0.702 | -0.645
CG17549 | DRSC02625 | -0.666 | 0.706 | -0.0446
CG18577 | DRSC15352 | -0.0893 | -0.398 | 0.143
Nse4 | DRSC02239 | -1.57 | -0.15 | -0.373
Nse4 | DRSC28337 | 0.247 | -0.686 | -0.903
Urm1 | DRSC22941 | 0.108 | 0.588 | -0.0525
Urm1 | DRSC29463 | 0.767 | 0.0678 | 0.00927
Urm1 | DRSC39097 | 0.0398 | -5.78 | 1.95
Miro | DRSC15795 | -0.155 | -0.204 | 0.393
CG5323 | DRSC06929 | -0.157 | -0.317 | -2.16
twit | DRSC03210 | -5.81 | 0.124 | 1.01
twit | DRSC30028 | -0.819 | -0.338 | -3.35
